Source: paper PMC8664216 (PLoS Neglected Tropical Diseases, 2021)

Experiments:
[1] = test system: CHIKV-LR trans-replicase system; assay: CHIKV trans-replicase system, tomato marker by flow cytometry; format: cell-based, Chikungunya virus; conditions: marker-positive Huh7 cells, 10 μM tomatidine, 24 h post-transfection
CHIKV-LR = assay: Western blot of CHIKV nsP2, E1 and capsid proteins; format: cell-based, Chikungunya virus; conditions: 9 hpi
[2] = Huh7, MOI 10, 10 μM tomatidine added at 4 hpi
[3] = Huh7, MOI 10, 10 μM tomatidine added at 6 hpi
[4] = Huh7, MOI 10, 10 μM tomatidine added simultaneous to infection

C[C@H]1CC[C@]2(NC1)O[C@H]1C[C@H]3[C@@H]4CC[C@H]5C[C@@H](O)CC[C@]5(C)[C@H]4CC[C@]3(C)[C@H]1[C@@H]2C [tomatidine, Tomatidine]
MFI of tomato marker relative to EtOH control [1]: 1.0±0.06 | C (capsid) expression, fold-change to EtOH control (CHIKV-LR; [2]): 0.5±0.2 fold | E1 expression, fold-change to EtOH control (CHIKV-LR; [2]): 0.3±0.1 fold | nsP2 expression, fold-change to EtOH control (CHIKV-LR; [2]): 0.5±0.1 fold | C (capsid) expression, fold-change to EtOH control (CHIKV-LR; [3]): 0.6±0.1 fold | E1 expression, fold-change to EtOH control (CHIKV-LR; [3]): 0.4± 0.2 fold | nsP2 expression, fold-change to EtOH control (CHIKV-LR; [3]): 0.6±0.2 fold | C (capsid) expression, fold-change to EtOH control (CHIKV-LR; [4]): 0.46±0.1 fold | E1 expression, fold-change to EtOH control (CHIKV-LR; [4]): 0.18±0.1 fold | nsP2 expression, fold-change to EtOH control (CHIKV-LR; [4]): 0.5±0.1 fold
